A mixed list of measured activities; the numbers were collected in NIAID ChemDB.

All rows: growth or infection tests; organism: HIV-1; cell line: PBMC; endpoint: EC50

ECn is the concentration giving n% inhibition of infection, replication or growth. Rows are shuffled and stem from different studies.

COc1ccc(C[C@H](NC(=O)c2cccc(O)c2C)[C@H](O)C(=O)N2CSC(C)(C)[C@H]2C(=O)NCc2ccccc2C)cc1 ; strain: 1002-60 PI-resistant ; changes: PR-L10I M46I I54V L63P V82F L90M ; method: RT activity ; result: 0.017 µM
Cc1cn([C@H]2C[C@H](N=[N+]=[N-])[C@@H](CO)O2)c(=O)[nH]c1=O ; strain: IIIB ; method: RT activity ; result: <0.01 µM
CC(C)Nc1cccnc1N1CCN(C(=O)c2cc3ccc(F)cc3[nH]2)CC1 ; strain: D34 ; method: p24 ; result: 0.0055 µM
Cc1cn([C@H]2C[C@H](N=[N+]=[N-])[C@@H](COC(=O)C(=O)O)O2)c(=O)[nH]c1=O ; strain: IIIB ; method: p24 ; result: 0.025 µM
CCCCCCCCCc1ccc(OCCOCCOCCOCCOCCOCCOCCOCCOCCO)cc1 ; method: p24 ; result: 2.2 µM
Cc1cn([C@H]2C[C@@H](CO)[C@@H](CO)O2)c(=O)[nH]c1=O ; strain: LAV ; method: RT activity ; result: 87.7 µM
Cc1cnnn1[C@H]1C[C@H](n2ccc(=O)[nH]c2=O)O[C@@H]1CO ; strain: LAV ; method: RT activity ; result: >100 µM
Nc1ncnc2c(C3OC(CO)C(O)C3O)c[nH]c12 ; strain: LAV ; method: RT activity ; result: 0.004 µM
CC(=O)N1CCC(C(=O)N(CCCN2CCC(Cc3ccc(C(N)=O)cc3)CC2)c2ccc(C)c(Cl)c2)CC1 ; strain: HTN R5 clinical isolate ; method: p24 ; result: 0.00093 µM
CC1(Cl)C(=O)NC(=O)N([C@H]2C[C@H](N=[N+]=[N-])[C@@H](CO)O2)C1O ; strain: IIIB ; method: p24 ; result: >10 µM
c1cc(CN2CCCNCCNCCCNCC2)ccc1CN1CCCNCCNCCCNCC1 ; strain: NL4-3 ; method: p24 ; result: 0.007 µM
Cc1cn([C@H]2C[C@H](N=[N+]=[N-])[C@@H](COC(=O)C(=O)N[C@@H](CC(C)C)C(=O)O)O2)c(=O)[nH]c1=O ; strain: IIIB ; method: p24 ; result: 0.01 µM
O=c1[nH]cnc2c1ncn2[C@H]1CC[C@@H](CO)O1 ; strain: 8848 CLADE C CLADE C ; method: p24 ; result: 0.141 µM
O=c1[nH]cnc2c1ncn2[C@H]1CC[C@@H](CO)O1 ; strain: JSL ; changes: MDR ; method: p24 ; result: 2.5 µM
Cc1cn([C@H]2C[C@H](N=[N+]=[N-])[C@@H](CO)O2)c(=O)[nH]c1=O ; strain: WEJO ; method: cytopathic effect / XTT ; result: 0.02 µM
Cc1c(O)cccc1C(=O)N[C@@H](CSc1ccccc1)[C@H](O)CN1C[C@H]2CCCC[C@H]2C[C@H]1C(=O)NC(C)(C)C ; strain: TM ; changes: MDR ; method: p24 ; result: >1 µM
c1cc(CN2CCCNCCNCCCNCC2)ccc1CN1CCCNCCNCCCNCC1 ; strain: 92TH001 CLADE E R5 ; method: p24 ; result: ~0.5 µM
CCOP(=O)(C[C@@H]1C[C@H](n2cc(C)c(=O)[nH]c2=O)O[C@@H]1CO)OCC ; strain: LAV ; method: RT activity ; result: 32 µM
Cc1cn([C@H]2C[C@H](n3nncc3C)[C@@H](CO)O2)c(=O)[nH]c1=O ; strain: LAV ; method: RT activity ; result: >100 µM
Nc1ccn([C@H]2C=C[C@@H](CO)O2)c(=O)n1 ; strain: LAV ; method: RT activity ; result: 0.005 µM
Cn1c(CN(CCN2CCCCC2)CC2CCCN(C3CCCC3)C2)nc2ccccc21 ; strain: NL4-3 ; method: p24 ; result: 1 µM
Cc1c(O)cccc1C(=O)N[C@@H](CSc1ccccc1)[C@H](O)CN1C[C@H]2CCCC[C@H]2C[C@H]1C(=O)NC(C)(C)C ; strain: 1026-40 PI-resistant ; changes: PR-L10I M46I I54V L63P A71V V82A L90M ; method: RT activity ; result: 0.335 µM
CCc1c(Sc2ccccn2)n(COCc2ccccc2)c(=O)[nH]c1=O ; strain: WEJO ; method: cytopathic effect / XTT ; result: 0.05 µM
Cc1cn([C@H]2C[C@H](N=[N+]=[N-])[C@@H](CO)O2)c(=O)[nH]c1=O ; strain: BAL R5 ; method: p24 ; result: 0.013 µM
CCCCC#CCSc1ccccc1OC(C)=O ; strain: BaL ; method: p24 ; result: 13.5 µM
Oc1ccccc1CN(CCN1CCCCC1)CC1CCCN(C2CCCC2)C1 ; strain: NL4-3 ; method: p24 ; result: 2.6 µM
CC(C)(C)OC(=O)N[C@@H](Cc1ccccc1)[C@H](O)CNC[C@@H](O)[C@H](Cc1ccc(OCC(=O)N2CCOCC2)cc1)NC(=O)OC(C)(C)C ; strain: IIIB ; method: p24 ; result: 0.02 µM
CC(C)CN(C[C@@H](O)[C@H](Cc1ccccc1)NC(=O)O[C@H]1CCOC1)S(=O)(=O)c1ccc(N)cc1 ; strain: 92UG029 ; method: p24 / luminescence ; result: 0.047 µM
Cc1cn([C@H]2C[C@H](N=[N+]=[N-])[C@@H](COC(=O)C(=O)NC(Cc3ccccc3)C(=O)O)O2)c(=O)[nH]c1=O ; strain: IIIB ; method: p24 ; result: 0.45 µM
CCCCN1C(=O)C(CC(C)C)NC(=O)C12CCN(CCCCCCc1ccccc1)CC2 ; strain: NL4-3 ; method: p24 ; result: >1 µM
C[C@@H]1CC[C@H]2[C@@H](C)CO[C@@H]3OC4(C)CC[C@@H]1[C@]32OO4 ; strain: LAV ; method: RT activity ; result: >100 µM
CC(C)OC(=O)OCOP(=O)(CO[C@H](C)Cn1cnc2c(N)ncnc21)OCOC(=O)OC(C)C ; strain: 96250 ; method: XTT / p24 ; conditions: 7 d, clinical isolate ; result: 0.0004 µM
Cc1cn([C@H]2C=C[C@@H](CO)O2)c(=O)[nH]c1=O ; strain: LAV ; method: RT activity ; result: 0.0088 µM
CC(C)CN(C[C@@H](O)[C@H](Cc1cc(F)cc(F)c1)NC(=O)O[C@H]1CCO[C@H]2OCC[C@H]21)S(=O)(=O)c1ccc2nc(NC(C)C)sc2c1 ; strain: Clinical isolate ; changes: L10I I15V K20R L24I M36I M46L I54V I62V L63P K70Q V82A L89M ; method: p24 / luminescence ; conditions: clinical isolate, multidrug-resistant ; result: 0.0029 µM
Cc1cccc(C)c1OCC(=O)N[C@@H](Cc1ccccc1)[C@@H](O)C[C@H](Cc1ccccc1)NC(=O)[C@H](C(C)C)N1CCCNC1=O ; strain: 1002-60 PI-resistant ; changes: PR-L10I M46I I54V L63P V82F L90M ; method: RT activity ; result: 0.573 µM
COC(=O)c1ccc([C@H]2OOC3(CCC[C@@H](C)C3)[C@@H](OC)O2)cc1 ; strain: LAV ; method: RT activity ; result: >100 µM
CC(C)c1nc(CN(C)C(=O)N[C@H](C(=O)N[C@@H](Cc2ccccc2)C[C@H](O)[C@H](Cc2ccccc2)NC(=O)OCc2cncs2)C(C)C)cs1 ; strain: BaL ; method: p24 ; result: 0.006 µM
CCO/N=C(\c1ccc(Br)cc1)C1CCN(C2(C)CCN(C(=O)c3c(C)cc[n+]([O-])c3C)CC2)CC1 ; strain: BAL R5 ; method: p24 ; result: 0.003 µM
Cc1ccccc1CNC(=O)[C@H]1N(C(=O)[C@@H](O)[C@H](Cc2ccccc2)NC(=O)c2cccc(O)c2C)CSC1(C)C ; strain: 1002-60 PI-resistant ; changes: PR-L10I M46I I54V L63P V82F L90M ; method: RT activity ; result: 0.037 µM

The first 4 rows once more:

{"smiles": "COc1ccc(C[C@H](NC(=O)c2cccc(O)c2C)[C@H](O)C(=O)N2CSC(C)(C)[C@H]2C(=O)NCc2ccccc2C)cc1", "strain": "1002-60 PI-resistant", "changes": "PR-L10I M46I I54V L63P V82F L90M", "method": "RT activity", "result": "0.017 µM"}
{"smiles": "Cc1cn([C@H]2C[C@H](N=[N+]=[N-])[C@@H](CO)O2)c(=O)[nH]c1=O", "strain": "IIIB", "method": "RT activity", "result": "<0.01 µM"}
{"smiles": "CC(C)Nc1cccnc1N1CCN(C(=O)c2cc3ccc(F)cc3[nH]2)CC1", "strain": "D34", "method": "p24", "result": "0.0055 µM"}
{"smiles": "Cc1cn([C@H]2C[C@H](N=[N+]=[N-])[C@@H](COC(=O)C(=O)O)O2)c(=O)[nH]c1=O", "strain": "IIIB", "method": "p24", "result": "0.025 µM"}